# Experimental data: article PMC1865545, “Structure of α-conotoxin BuIA: influences of disulfide connectivity on structural dynamics” (2007)
# The chains behind the UniProt entries cited, without tags or fusion partners. Residues count along the entry.
# UniProt P04757, 26-499 limits assumed: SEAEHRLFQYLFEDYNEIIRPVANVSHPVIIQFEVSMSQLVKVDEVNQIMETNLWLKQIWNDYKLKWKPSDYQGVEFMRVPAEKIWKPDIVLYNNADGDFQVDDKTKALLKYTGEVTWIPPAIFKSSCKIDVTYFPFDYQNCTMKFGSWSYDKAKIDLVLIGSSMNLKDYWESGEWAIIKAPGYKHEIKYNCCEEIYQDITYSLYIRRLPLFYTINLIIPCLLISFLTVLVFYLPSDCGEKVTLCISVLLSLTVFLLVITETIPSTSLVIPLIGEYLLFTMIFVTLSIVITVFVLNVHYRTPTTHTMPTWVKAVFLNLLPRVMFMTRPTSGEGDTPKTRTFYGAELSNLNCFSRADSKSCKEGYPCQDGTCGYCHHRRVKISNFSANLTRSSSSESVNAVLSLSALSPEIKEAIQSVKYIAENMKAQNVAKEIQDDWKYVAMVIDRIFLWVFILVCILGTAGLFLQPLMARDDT
# UniProt P12392, 21-495 limits assumed: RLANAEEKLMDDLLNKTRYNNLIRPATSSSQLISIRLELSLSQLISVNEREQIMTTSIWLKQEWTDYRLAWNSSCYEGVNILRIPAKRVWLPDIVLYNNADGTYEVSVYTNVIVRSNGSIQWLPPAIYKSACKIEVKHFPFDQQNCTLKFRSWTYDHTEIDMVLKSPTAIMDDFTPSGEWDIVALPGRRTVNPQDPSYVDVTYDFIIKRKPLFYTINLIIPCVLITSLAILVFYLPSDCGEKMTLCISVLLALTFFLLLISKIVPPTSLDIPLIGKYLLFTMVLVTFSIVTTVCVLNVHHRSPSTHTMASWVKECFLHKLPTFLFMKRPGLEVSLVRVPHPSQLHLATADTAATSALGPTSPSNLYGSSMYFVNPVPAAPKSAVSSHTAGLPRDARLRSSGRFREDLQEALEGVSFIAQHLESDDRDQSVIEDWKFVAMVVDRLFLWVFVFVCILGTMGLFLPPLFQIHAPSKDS
# UniProt P12390, 25-500 limits assumed: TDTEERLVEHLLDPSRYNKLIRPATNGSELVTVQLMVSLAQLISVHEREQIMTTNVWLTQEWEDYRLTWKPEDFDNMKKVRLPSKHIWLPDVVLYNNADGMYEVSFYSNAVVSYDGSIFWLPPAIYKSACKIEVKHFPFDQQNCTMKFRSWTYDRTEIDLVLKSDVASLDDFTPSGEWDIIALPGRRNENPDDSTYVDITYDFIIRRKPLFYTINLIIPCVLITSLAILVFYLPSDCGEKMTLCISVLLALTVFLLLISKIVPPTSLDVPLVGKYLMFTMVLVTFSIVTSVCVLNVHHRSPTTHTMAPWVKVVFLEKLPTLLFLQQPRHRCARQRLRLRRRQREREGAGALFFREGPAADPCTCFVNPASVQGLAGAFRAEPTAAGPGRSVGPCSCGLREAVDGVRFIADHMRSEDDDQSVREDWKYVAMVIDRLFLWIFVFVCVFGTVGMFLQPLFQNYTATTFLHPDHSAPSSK
# pIC50: −log10 of the molar value.
# Assays:
# [1] = biological target: α3β4 nAChR (Rattus norvegicus, UniProt P04757+P12392); assay: Inhibition of ACh-evoked current amplitude, two electrode voltage clamp, Xenopus oocytes, α3β4; settings: read-out: IC50 for inhibition of ACh-evoked current, 100 μM ACh for 2 s, 5 min incubation of peptide, holding potential -80 mV, ND96 pH 7.4, 20 – 23°C, peak current, mean ± SEM, n = 4–7
# [2] = biological target: α3β2 nAChR (Rattus norvegicus, UniProt P04757+P12390); assay: Inhibition of ACh-evoked current amplitude, two electrode voltage clamp, Xenopus oocytes, α3β2; settings: read-out: IC50 for inhibition of ACh-evoked current, 100 μM ACh for 2 s, 5 min incubation of peptide, holding potential -80 mV, ND96 pH 7.4, 20 – 23°C, peak current, mean ± SEM, n = 4–7
structure (smiles),measurement,setting,value
CC(C)C[C@@H]1NC(=O)[C@H](C(C)C)NC(=O)[C@H](C)NC(=O)[C@@H]2CSSC[C@H](NC(=O)CN)C(=O)N[C@@H](CSSC[C@@H](C(N)=O)NC(=O)[C@H](Cc3ccc(O)cc3)NC1=O)C(=O)N[C@@H](CO)C(=O)N[C@@H]([C@@H](C)O)C(=O)N1CCC[C@H]1C(=O)N1CCC[C@H]1C(=O)N2,pIC50,[1],7.23
same,pIC50,[2],8.32
